Where two headings read alike, the source gives them in different places.

Two molecules from publication PMC6095514, “Generation and characterisation of recombinant FMDV antibodies: Applications for advancing diagnostic and laboratory assays” (PLoS ONE, 2018) can be followed below.

The assay concerns the target T1, VP1 of FMDV O1 Kaufbeuren in infected cells (FMDV type O, O1 Kaufbeuren, UniProt P03305).
T1 construct: source: IBRS-2 cells infected with FMDV O1K, fixed and permeabilised
The assay can be described thus: immunostaining of cells or tissue.

B1: mouse/rabbit D9 chimeric antibody (antibody, V domains shown)
VH: QVQLQESGGGLVQPGGSLKLSCAASGFTFSTYGMSWVRQTPDKRLELVATTITNGGSTYYPDSVKGRFTISRDNAKNTLYLQMSSLKFEDTAMYYCAREGGDYSAWFAYWGQGTTVTVSS
VL: DIELTQSPSSLTVTTGEKVTMNCKSSQNLLNSINQKNYLTWYQQKPGQPPKVLIYWASTRDSGVPDRFTGSGSGTDFTLTISSVQAEDLAVYYCQNDYTYPLTFGAGTKLEIK
In the case of B1, the binding result is “binds”.

B2: mouse monoclonal antibody D9 (antibody, V domains shown)
VH: B1 VH
VL: B1 VL
notes: also called MAb D9; Anti-O MAb D9; source: mouse MAb; diluted ascites or purified antibody
In the case of B2, under “one partner purified”, the binding result was “binds”.
